Measurements published in patent US8816122B2 (The Board of Trustees of the Leland Stanford Junior …, priority 2009, dated 2014).

Test system: U1 promonocytic cells containing two integrated HIV proviruses
Assay: Viral activation of U1 promonocytic cells, HIV p24 ELISA of supernatant
Format: cell-based

SMILES: CCC/C=C/C=C/C(=O)O[C@H]1/C(=C/C(=O)OC)C[C@H]2C[C@H]([C@@H](C)O)OC(=O)C[C@H](O)C[C@@H]3C[C@H](OC(C)=O)C(C)(C)[C@](O)(C[C@@H]4C/C(=C/C(=O)OC)C[C@H](/C=C/C(C)(C)[C@]1(O)O2)O4)O3 [Bryostatin 1, reference compound]
- Concentration at Maximum p24 Level: 1 nM
- Minimum Concentration for Viral Expression (measured by p24 levels): 1 nM
